Measured values from several laboratories, pooled; numbers as filed in NIAID ChemDB.

Shared fields: enzyme or target tests

Blank or dashed fields: not listed here. Fold resistance: result on the changed form divided by that on wild type. Rows are shuffled and stem from different studies. ICn: concentration for n% inhibition. a–b is a range or a potency band.

O=c1c(-c2ccco2)cn2ccn(Cc3cccc(Cl)c3)c(=O)c2c1O ; agent: HIV-1 ; target: Integrase ; read by: ELISA ; read-out: IC50 ; value: <0.01 µM
CCCC[C@@H](CN[C@@H](CCC(N)=O)C(=O)N[C@@H](CCCN=C(N)N)C(N)=O)NC(=O)[C@H](CCCC)NC(=O)C(NC(=O)C(NC(C)=O)[C@@H](C)O)[C@@H](C)CC ; agent: HIV ; changes: PR-R8Q ; target: Protease ; read by: HPLC ; read-out: IC50 ; value: <2.17 µM
CC(=O)NCCCCC(C)(C)CN(C[C@@H](O)[C@H](Cc1ccccc1)NC(=O)O[C@H]1CO[C@H]2OCC[C@H]21)S(=O)(=O)c1ccc2c(c1)OCO2 ; agent: HIV-1 ; target: Protease ; read by: fluorescence ; read-out: Ki ; value: <0.001 µM
O=C(Nc1cn2ccn(Cc3cccc(Cl)c3)c(=O)c2c(O)c1=O)C1CCCC1 ; agent: HIV-1 ; target: Integrase ; read by: ELISA ; read-out: IC50 ; value: 0.01–0.1 µM
CC(C)(C)c1ccc(-n2nnnc2SCC(=O)Nc2ccc(C(=O)NC(CO)C(=O)O)cc2Cl)c(Cl)c1 ; agent: HIV-1 ; changes: RT-K103 Y181C ; target: Reverse transcriptase ; read by: PicoGreen / fluorescence ; read-out: IC50 ; value: <1 µM
CS(=O)(=O)Oc1c(=O)c(Br)cn2ccn(Cc3cccc(Cl)c3)c(=O)c12 ; agent: HIV-1 ; target: Integrase ; read by: ELISA ; read-out: IC50 ; value: 0.1–1 µM
CNC(=O)c1ccc(NC(=O)CSc2nnnn2-c2ccc(C)cc2Cl)c(Cl)c1 ; agent: HIV-1 ; changes: RT-K103 Y181C ; target: Reverse transcriptase ; read by: PicoGreen / fluorescence ; read-out: IC50 ; value: <1 µM
O=C(NCc1ccccn1)c1cn2c(c(O)c1=O)C(=O)N(Cc1ccc(F)cc1)CC2 ; agent: HIV-1 ; target: Integrase ; read by: ELISA ; read-out: IC50 ; value: 0.01–0.1 µM
CCCN=C(NC#N)NCCCCC(C)(C)CN(C[C@@H](O)[C@H](Cc1ccccc1)NC(=O)O[C@H]1CO[C@H]2OCC[C@H]21)S(=O)(=O)c1ccc2c(c1)OCO2 ; agent: HIV-1 ; target: Protease ; read by: fluorescence ; read-out: Ki ; value: <0.001 µM
CC(C)=CCN1Cc2cccc3[nH]c(=S)n(c23)C[C@@H]1C ; agent: HIV ; changes: RT-W266S ; target: Reverse transcriptase ; read by: nucleotide incorporation ; read-out: IC50 ; value: >100 µM
CNc1cccc(S(=O)(=O)N(C[C@@H](O)[C@H](Cc2ccccc2)NC(=O)O[C@H]2CO[C@H]3OCC[C@H]32)CC(C)(C)CCNC(=O)OC)c1 ; agent: HIV-1 ; target: Protease ; read by: fluorescence ; read-out: Ki ; value: <0.001 µM
CC(C)(C)c1ccc(-n2nnnc2SCC(=O)Nc2ccc(C(=O)Nc3cccc(C(=O)O)c3)cc2Cl)c(Cl)c1 ; agent: HIV-1 ; changes: RT-K103 Y181C ; target: Reverse transcriptase ; read by: PicoGreen / fluorescence ; read-out: IC50 ; value: <1 µM
COc1ccnc2[nH]cc(C(=O)C(=O)N3CCN(C(=O)c4ccccc4)C[C@H]3C)c12 ; agent: HIV-1 ; strain: LAI ; changes: GP120-V68A/M426L ; target: gp120 ; read by: ELISA ; read-out: fold resistance ; value: >91
Nc1nc2c(ncn2[C@H]2CO[C@@H](COP(=O)(O)OP(=O)(O)OP(=O)(O)O)O2)c(=O)[nH]1 ; agent: HIV ; changes: RT-L74V K103N ; target: Reverse transcriptase ; read by: radiometric ; read-out: Ki ; value: 0.022 µM
CC(C)Oc1cc(Cl)ccc1CN1CCn2cc(-c3nccs3)c(=O)c(O)c2C1=O ; agent: HIV-1 ; target: Integrase ; read by: ELISA ; read-out: IC50 ; value: 0.01–0.1 µM

A second listing of 2 rows from above:

| smiles | agent | strain | changes | target | read by | read-out | value |
|---|---|---|---|---|---|---|---|
| CC(C)(C)c1ccc(-n2nnnc2SCC(=O)Nc2ccc(C(=O)Nc3cccc(C(=O)O)c3)cc2Cl)c(Cl)c1 | HIV-1 |  | RT-K103 Y181C | Reverse transcriptase | PicoGreen / fluorescence | IC50 | <1 µM |
| CC(C)=CCN1Cc2cccc3[nH]c(=S)n(c23)C[C@@H]1C | HIV |  | RT-W266S | Reverse transcriptase | nucleotide incorporation | IC50 | >100 µM |